Experimental findings from patent publication US20200200749A1 (VANDERBILT UNIVERSITY, published 2020) are described below.

B1: EBOV87 (antibody, V domains shown)
VH: QVQLVQSGAEVKRPGASVKVSCKASGYTFTSYAISWVRQAPGQGLEWMGWISGNNGNTNYAQKLQGRLTMTTDTSTSTAYMELRSLRSDDTAVYYCARDADIVVVVGATGTYYYGMDVWGQGTLVTVSS
VL: DIVMTQSPSTLSASVGDRVTITCRASQSISSWLAWYQQKPGKAPKLLIYDASSLESGVPSRFSGSGSGTEFTLTISSLQPDDFATYYCQQYKSSLRTFGQGTQLEIK
B2: EBOV62 (antibody, V domains shown)
VH: EVQLVESGGGLVQPGGSLRLSCAASGFTFSSYWMSWVRQAPGKGLEWVANIKQDGSAKYYVDSVKGRFTISRDNAKNSLYLQMNSLRAEDTAVYYCARDGLLGISDLLYPIYYFDYWGQGTLVTVSS
VL: DIVMTQSPSSLSASVGDRVTITCRASQNIGSYLNWYQQKPGKAPNLLMYAASSLQSGVPSRFSGSGSGTDFTLTITSLQPEDFATYYCQQSYSIPRTFGQGTQLEIK
B3: EBOV63 (antibody, V domains shown)
VH: EVQLVESGGGLVKPGGSLRLSCAASGFTLNFYNMNWVRQAPGKGLEWVSSISSSSNYIYYADSVKGRFTISRDNARKSLYLQMNSLRAEDTAVYYCARDFVQLLIPQRDEWQGVHDYYGMDVWGQGTLVTVSS
VL: EIVLTQSPGTLSLSPGGRATLSCRASQSVSNSYLAWYQQKPGQAPRLLIYGASSRATGIPDRFSGSGSGTDFILTISRLEPEDFAVYYCQHYGSSQLTFGGGTKVEIK
B4: EBOV49 (antibody, V domains shown)
VH: EVQLVESGGGLVQPGGSLRLSCAASGFTFSSYEINWVRQAPGRGLEWVSYISSSGRTIYYADSVKGRFTISRDNAKNSLYLQMNSLRAEDTAVYYCAREPYVDGILYGAGDSYFDYWGQGTLVTVSS
VL: DIQMTQSPSSLSASVGDRVTITCRASQSISNYLNWYQQKPGKAPKVLIYAASSLQSGVSSRFSGSGSGTDFTLTISSLQPEDFATYFCQQSYNTPPVTFGQGTRLEIK
B5: EBOV157 (antibody, V domains shown)
VH: QVQLVQSGGGLVQPGGSLRLSCAASGFTVSNNYMSWVRQAPGKGLEWVSIFYSDGTTYNADSVKGRFTISRDNSKNTLYLQMNSLRAEDTAVYYCARQASGYDAYYMDVWGQGTLVTVSS
VL: DIVMTQSPSTLSASVGDRVTITCRASQSINSWLAWYQQKPGKAPKLLIYQASTLERGVPSRFSGSGAGTEFTLTISSLQPDDFATYYCQQYSSFPLTFGGGTKVELK
B6: EBOV52 (antibody, V domains shown)
VH: QVQLQESGPGLVKPSETLSLNCTVSGGSISSYYWSWIRQPPGKGLEWIGYIYDSGRTKYNPSLKSRVTISLDTSKNQFSLKLSSVTAADTAVYYCASLGPFDKLWFGELLPGWFDPWGQGTLVTVSS
VL: EIVLTQSPATLSLSPGGRATLSCRASQSVHNYLAWYQQKSGQAPRLLIYDASNRATGIPARFSGSGSGTDFTLTISSLEPDDFAVYYCQHRSNWLTFGGGTKVEIK

In this assay the target is EBOV GP on virus (Ebola Zaire strain Mayinga) (Ebola Zaire strain Mayinga (EBOV), UniProt Q05320 33-676). Nature of the assay: cell-based or functional assay.
With B1, the “IC50, neutralization of EBOV” value stood at 3.3 µg/mL.
As to B2, the “IC50, neutralization of EBOV” value amounted to 8.5 µg/mL.
With B3, the “IC50, neutralization of EBOV” value was found to be 6.4 µg/mL.
Next, B4: 6.5 µg/mL.
For B5, the “IC50, neutralization of EBOV” value is 29.9 µg/mL.
As to B6, the “IC50, neutralization of EBOV” value is 4 µg/mL.
